Pooled drug test results. Numbers come from NIAID ChemDB, via PubChem.

All rows: whole-cell or culture tests; agent: Hepatitis C virus; read by: luciferase / replicon; endpoint: EC50

Rows are shuffled and stem from different studies.

SMILES | strain | cell line | conditions | result
COC(=O)N[C@H](C(=O)N1CCC[C@H]1c1ncc(-c2ccc3c(c2)Oc2ccc(-c4cnc([C@@H]5CCCN5C(=O)[C@@H](NC(=O)OC)C(C)C)[nH]4)cc2C3(C)C)[nH]1)C(C)C | GT2a | Huh7 |  | 0.000058 µM
O=C(N[C@H]1CCCCC/C=C\[C@@H]2C[C@@]2(C(=O)NS(=O)(=O)C2CC2)NC(=O)C2C[C@@H](OC(=O)N3Cc4cccc(F)c4C3)CN2C1=O)c1ccc2c(c1)B(O)OC2 |  |  | genotype 1a | 201 nM
COc1ccc2c(c1)C[C@@H]1C[C@]1(C(=O)N1C[C@H]3CC[C@@H](C1)CN(S(=O)(=O)C(C)C)C3)Cn1c-2c(C2CCCCC2)c2ccc(C(=O)NS(=O)(=O)C(C)C)cc21 | H77 | HCV replicon cells |  | 0.007 µM
Cc1c(C(=O)Nc2ccccc2)nn(-c2ccccc2)c1-n1cccc1 | Con1 (gt 1b) | Huh 5-2 |  | 6.7 µM
Cc1ccc(Sc2cc(=O)n(C)c3ccc(C)cc23)cc1 |  | Huh-Luc-Neo |  | <1 µM
O=C(Nc1ccccc1)c1cc(-n2cccc2)n(-c2ccccc2)n1 | Con1 (gt 1b) | Huh 5-2 |  | 31.7 µM
COc1nc(N)nc2c1ncn2[C@@H]1O[C@H](COP(=O)(N[C@@H](CC(C)C)C(=O)OCC(C)(C)C)Oc2cccc3ccccc23)[C@@H](O)[C@@]1(C)O | 1b replicon | Huh7 |  | 0.06 µM
CC(C)N(C(=O)c1ccc(Cl)cc1Cl)c1cc(-c2ccc(-c3cc4ncccn4n3)cc2)sc1C(=O)O | 1a |  |  | 0.01–0.05 µM
C=CCCCS(=O)(=O)NC(=O)[C@H](CCC)NC(=O)[C@@H](NC(=O)[C@@H](NC(=O)OC(C)(C)C)C(C)(C)C)c1ccc(Oc2cc(-c3ccccc3)nc3cc(OC)ccc23)c(C=C)c1 | 1b replicon |  |  | >10 µM
CC(C)N(C(=O)c1ccc(Cl)cc1Cl)c1cc(-c2ccc(-c3cn4ccsc4n3)cc2)sc1C(=O)O | 1b |  |  | 0.1–0.5 µM
CCN(CC)C(=O)c1sc2nc(-c3ccccc3)cc(C(F)(F)F)c2c1N |  | Huh7 |  | 3.5 µM
Cn1c(=O)cc(Sc2ccc(Cl)cc2)c2cc(F)ccc21 |  | Huh-Luc-Neo |  | 1–10 µM
COc1ccc(-c2cc(C(F)(F)F)c3c(N)c(C(N)=O)sc3n2)cc1 |  | Huh7 |  | 4 µM
N#Cc1c(C(=O)Nc2ccc(Cl)c(Cl)c2)nn(-c2ccc(Cl)cc2)c1-n1cccc1 | Con1 (gt 1b) | Huh 5-2 |  | 50.5 µM
COc1ccc2c(c1)C[C@@H]1C[C@]1(C(=O)N1C[C@H]3CC[C@@H](C1)CN(S(=O)(=O)C(C)C)C3)Cn1c-2c(C2CCCCC2)c2ccc(C(=O)NS(=O)(=O)N(C)C)cc21 | H77 | HCV replicon cells |  | 0.006 µM
Cn1c(=O)cc(Sc2cc(Cl)ccc2Cl)c2ccccc21 |  | Huh-Luc-Neo |  | 10–100 µM
CC(C)OP1(=O)CC(n2ccc(N)nc2=O)O[C@@H]1COCc1ccccc1 | ZS11 (gt 1b) | Huh7 |  | >10 µM
Cn1c(=O)cc(Sc2c(Cl)cccc2Cl)c2ccccc21 |  | Huh-Luc-Neo |  | 1–10 µM
Nc1c(C(=O)N2CCn3c(nnc3C(F)(F)F)C2)sc2nc(-c3ccccc3)cc(C(F)(F)F)c12 |  | Huh7 |  | 3.3 µM
Cn1c(=O)cc(Sc2ccc(Br)cc2)c2ccccc21 |  | Huh-Luc-Neo |  | 1–10 µM
C=Cc1cc([C@H](NC(=O)[C@@H](NC(=O)OC(C)(C)C)C(C)(C)C)C(=O)N[C@@H](CCC)C(=O)NS(=O)(=O)c2ccccc2C=C)ccc1Oc1cc(-c2ccccc2)nc2cc(OC)ccc12 | 1b replicon |  |  | >10 µM
CC(C)N(C(=O)c1ccc(Cl)cc1Cl)c1cc(-c2ccc(-c3cc4ncccc4o3)cc2)sc1C(=O)O | 1a |  |  | 0.05–0.1 µM
Cc1ccc2c(c1)c(Sc1ccc(F)cc1)cc(=O)n2C |  | Huh-Luc-Neo |  | <1 µM
CC(C)N(C(=O)c1ccc(Cl)cc1Cl)c1cc(-c2ccc(-c3cn4ccccc4n3)cc2)sc1C(=O)O | 1a |  |  | 0.1–0.5 µM
COc1ccc(Sc2cc(=O)n(C)c3ccccc23)cc1 |  | Huh-Luc-Neo |  | 1–10 µM

Again, the opening 3 rows:

SMILES	strain	cell line	conditions	result
COC(=O)N[C@H](C(=O)N1CCC[C@H]1c1ncc(-c2ccc3c(c2)Oc2ccc(-c4cnc([C@@H]5CCCN5C(=O)[C@@H](NC(=O)OC)C(C)C)[nH]4)cc2C3(C)C)[nH]1)C(C)C	GT2a	Huh7		0.000058 µM
O=C(N[C@H]1CCCCC/C=C\[C@@H]2C[C@@]2(C(=O)NS(=O)(=O)C2CC2)NC(=O)C2C[C@@H](OC(=O)N3Cc4cccc(F)c4C3)CN2C1=O)c1ccc2c(c1)B(O)OC2			genotype 1a	201 nM
COc1ccc2c(c1)C[C@@H]1C[C@]1(C(=O)N1C[C@H]3CC[C@@H](C1)CN(S(=O)(=O)C(C)C)C3)Cn1c-2c(C2CCCCC2)c2ccc(C(=O)NS(=O)(=O)C(C)C)cc21	H77	HCV replicon cells		0.007 µM

Two numbers with a dash give a range or band. Blank or dashed fields: not listed here. ECn: concentration that inhibits the pathogen or its effect by n%.